For 1 molecule, fold improvement of median IC80 against the parental antibodies used in combination results are on record in patent US20260242449A1.

Bounds are passed on as bounds.

The target of the assay is subset of 13 pseudoviruses. Put plainly: cell-based or functional assay.

B1: BiS13 (bispecific antibody)
heavy: QMQLQESGPGLVKPGETLSLTCSVSGASISSSYWSWLRETPGKGLEWIGYTHHSGDTNYAPSLKSRVHLGLHPSKNQVSLSLTSVTAADTAVYYCARTLHGRRIYGVVAFNEYYTYFYWPTWGKGTQVTVSSASTKGPSVFPLAPSSKSTSGGTAALGCLVKDYFPEPVTVSWNSGALTSGVHTFPAVLQSSGLYSLSSVVTVPSSSLGTQTYICNVNHKPSNTKVDKKV[human IgG1 Fc with changes omitted]
light: ALTQPRSVSASPGQSVTISCTGTHNLVSWCQHQPGRAPKLLIYDFNKRPSGVPDRFSGSGSGGTASLTITGLQDDDDAEYFCWAYEAFGGGTKLTVLGQGGGGSGGGGSGGGGSADLVQSGAVVKKPGDSVRISCEAQGYRFPDYIIHWIRRAPGQGPEWMGWMNPMGGQVNIPWKFQGRVSMTRDTSIETAFLDLRGLKSDDTAVYYCVRDRSNGSGKRFESSNWFLDLWGRGTAVTIQSGGGGSGGGGSGGGGSGGGGSGGGGSDISVAPGETVRITCGGESIGSRAVQWYQHRPGQAPRLIIYNNQDRPPGIPERFSGSPDIDFGTTATLTISNVEAGDEATYYCHIWDSRRPTNWELGPGTTLTVLGQPKAAPSVTLFPPSSEELQANKATLVCLISDFYPGAVTVAWKADSSPVKAGVETTTPSKQSNNKYAASSYLSLTPEQWKSHKSYSCQVTHEGSTVEKTVAPTECS
In the case of B1, the fold improvement of median IC80 against the parental antibodies used in combination is more than 13 fold.
